We go through two substances from US6451312.

One experiment deals with ICAM-1 (human) (UniProt P05362). The experiment is described as follows: cell-based or functional assay.
In the next experiment the target is human endoglin (human) (UniProt P17813). Description: cell-based or functional assay.

For “UV-3-dgA immunotoxin (from UniProt P02879 36-302)”, in the experiment with ICAM-1 (human), the IC50 (nm), protein synthesis inhibition, confluent HUVEC turned out to be 80 nM; the IC50 (nm), protein synthesis inhibition, subconfluent HUVEC turned out to be 9 nM; the IC50 ratio C/S came out at 8.9; the IC50 ratio Q/S was 4.1.

Turning to “TEC-11-dgA immunotoxin (from UniProt P02879 36-302)”, in the experiment with human endoglin (human), the IC50 (nm), protein synthesis inhibition, confluent HUVEC (extrapolated) is 180 nM; the IC50 (nm), protein synthesis inhibition, quiescent HUVEC (extrapolated) is 230 nM; the IC50 (nm), protein synthesis inhibition, subconfluent HUVEC amounted to 0.075 nM; the IC50 ratio C/S amounted to 2400. Moreover, in the experiment with human endoglin (human), the IC50 ratio Q/S is 3070, the inhibition of protein synthesis in confluent HUVEC cultures at 10-8 M was 20%, the inhibition of protein synthesis in quiescent HUVEC cultures at 10-8 M is 10% and the inhibition of protein synthesis in subconfluent HUVEC cultures at 10^-10 M was more than 60%.
